The text below walks through data of US20240391942A1 (priority 2021, published 2024).

Data set [1] relates to PCNA, MMP9 and Collagen-1 protein expression. Nature of the data set: Western blotting of PCNA, MMP9 and Collagen-1 in Ang2-treated A7R5 cells. The conditions noted are these: Ang2, 50 nM; control 100%, Ang2 220%±22.4% (FIG. 52A). On the technique in general: A western blot detects proteins with antibodies after separation by electrophoresis.
Data set [2] relates to OVA-induced BALB/c mouse asthma model. As to the kind of experiment: Ovalbumin OVA-induced BALB/c mouse asthma model. The conditions noted are these: asthma model mice; for body weight versus G2 model group: day 32.
Data set [3] relates to myocardial primary fibroblasts. The conditions noted are these: 100 nM, anoxia 24 h; control 100%±5.0%, hypoxic group 137%±[…].
Data set [4] deals with mouse infarction model. As to the kind of experiment: Mouse infarction model, HE and Masson staining. The conditions noted are these: infarct mouse model, gavage 0.3 mg/Kg; infarct group 45.47%±[…].
For data set [5], the system named is ApoE−/− mice. As to the kind of experiment: Atherosclerotic plaque formation in high-fat diet-fed ApoE−/− mice (aorta oil red O). The conditions noted are these: 0.15 mg/kg gavage once daily, 20 weeks.
The test system of data set [6] is ApoE−/− mice. As to the kind of experiment: Body weight and blood glucose of high-fat diet-fed ApoE−/− mice. The conditions noted are these: 12 weeks.
The subject of data set [7] is NHCF-V cells (ACTA2, CTGF, PAI-1 mRNA). Nature of the data set: RT-qPCR of fibrosis genes in TGF-β-treated cardiac fibroblasts. The conditions noted are these: NHCF-V cell, 100 nM, TGF-β 1 ng/mL, 24 hours.
The subject of data set [8] is LX-2 cells (ACTA2, COL1A1, TGFβ1 mRNA). Nature of the data set: RT-qPCR of fibrosis genes in TGF-β-treated hepatic stellate cells. The conditions noted are these: LX-2 cell, 100 nM, TGF-β 5 ng/mL, 24 hours. On the technique in general: Quantitative PCR measures a nucleic acid by following its amplification.
Data set [9] relates to HRMC cells (COL16A1, COL4A1, CTGF mRNA). Nature of the data set: RT-qPCR of fibrosis genes in TGF-β-treated renal mesangial cells. The conditions noted are these: HRMC cell, 100 nM, TGF-β 1 ng/mL, 24 hours.
Data set [10] concerns CCF-STTG1. The conditions noted are these: CCF-STTG1, Cerebral astrocytoma, 72 hours.
Data set [11] concerns CCRF-CEM. The conditions noted are these: Acute lymphoid T-cell leukemia, 72 hours.
Data set [12] relates to KS-1. The conditions noted are these: KS-1, Glioblastoma, 72 hours.
Data set [13] relates to SUP-B15. The conditions noted are these: SUP-B15, Acute lymphoid B-cell leukemia, 72 hours.

As to `O=[As]c1ccccc1` (stereo not drawn), the “Collagen-1 protein expression (WB)” value in data set [1] was 136%±8.7%. Further, the “body weight versus G2 model group” value in data set [2] (PAO 0.1 mpk) was “no significant difference”. Further, in data set [2] (PAO 0.3 mpk), the “number of neutrophils in lavage fluid versus G2 model group” value is “significantly reduced” and the “body weight versus G2 model group” value is listed as “no significant difference”. Besides, the “proliferative capacity of myocardiac fibroblasts (CCK8)” value in data set [3] was “statistically significant difference”. Besides, in [4], the “Collagen-containing area in heart tissue (Masson staining)” value is 31.30%±1.48%. Also, the “area of the plaques in the whole artery versus model group” value in data set [5] is “smaller”. Moreover, the “random, postprandial and fasting blood glucose” value in data set [6] is given as “reduced or tended to reduce”.

In the case of 2-mercaptopropyl-PAO, in data set [7], the “Relative changes in mRNA levels (vs. TGF-β treatment), ACTA2” value is on record as −31%; the “Relative changes in mRNA levels (vs. TGF-β treatment), CTGF” value is reported as 7%; the “Relative changes in mRNA levels (vs. TGF-β treatment), PAI-1” value is reported as −19%. In data set [8], the “Relative changes in mRNA levels (vs. TGF-β treatment), ACTA2” value is 48%; the “Relative changes in mRNA levels (vs. TGF-β treatment), COL1A1” value is −3%; the “Relative changes in mRNA levels (vs. TGF-β treatment), TGFB1” value is 7%. In data set [9], the “Relative changes in mRNA levels (vs. TGF-β treatment), COL4A1” value is on record as −7%; the “Relative changes in mRNA levels (vs. TGF-β treatment), COL16A1” value is recorded as −28%; the “Relative changes in mRNA levels (vs. TGF-β treatment), CTGF” value was −20%.

As usually defined, the IC50 is the point on the concentration scale where inhibition reaches its midpoint. Read a low IC50 as greater potency in that assay. Turning to `[2H]c1ccc([As]=O)cc1` (stereo not drawn), the IC50 in [10] came to 108 nM; in data set [11] it was 33.5 nM; in [12] it was 43.5 nM; in data set [13], 34.2 nM.
